Pooled drug test results. Numbers come from NIAID ChemDB, via PubChem.

All rows: target-level tests

Two numbers with a dash give a range or band. ICn: concentration for n% inhibition. Lines come from different laboratories, so protocols vary. An empty or dashed field is not shown.

smiles | organism | method | protein | strain or isolate | measure | value
CC(C)(C)CNc1nnc(NC(=O)/C=C/c2ccccc2Cl)s1 | Human cytomegalovirus |  | Polymerase |  | IC50 | >25 µM
COC(=O)[C@H](C)Nc1nc2ccc(NC(=O)c3ccccn3)c(C)c2c(=O)o1 | Human cytomegalovirus |  | Protease |  | IC50 | 0.31 µM
CC(=O)C(C(=O)OCc1ccccc1)C1=C(Cl)C(=O)c2ccccc2C1=O | Human cytomegalovirus | scintillation proximity | Protease |  | IC50 | 0.8 µM
O=C(Nc1ccc(Br)cc1)c1ccc2ccccc2c1O | Human cytomegalovirus |  | HCMV DNA polymerase |  | IC50 | 23 µM
Cc1ccccc1C(=O)O/N=C(\N)c1ccc(Cl)cc1Cl | Human cytomegalovirus | scintillation proximity / radiometric | Polymerase |  | IC50 | 6.1 µM
COC(=O)[C@H](CCSC)Nc1nc2cccc(C)c2c(=O)o1 | Human cytomegalovirus |  | Protease |  | IC50 | 0.46 µM
Nc1nc2c(ncn2CCCCOP(=O)(O)OP(=O)(O)OP(=O)(O)O)c(=O)[nH]1 | Human cytomegalovirus |  | DNA polymerase | AD169 | Ki | 0.23 µM
CC(=O)C(C(C)=O)C1=C(Cl)C(=O)c2ccccc2C1=O | Human cytomegalovirus | HPLC | Protease |  | IC50 | 9.1 µM
Cc1c(Br)ccc2nc(N[C@H](C)c3ccccc3)oc(=O)c12 | Human cytomegalovirus |  | Protease |  | IC50 | 0.32 µM
O=C(O)CP(=O)(O)O | Human herpesvirus 6 |  | DNA polymerase | TYPE 6 | IC50 | 2–5 µg/mL
Cc1cccc2nc(N[C@H](C)C(=O)OC(C)(C)C)oc(=O)c12 | Human cytomegalovirus |  | Protease |  | IC50 | 1.8 µM
N/C(=N\OC(=O)c1ccco1)c1ccc(Cl)cc1Cl | Human cytomegalovirus | scintillation proximity / radiometric | Polymerase |  | IC50 | >100 µM
O=C(NCc1ccc([N+](=O)[O-])cc1)c1cc2cc(O)ccc2cc1O | Human cytomegalovirus |  | HCMV DNA polymerase |  | IC50 | >40 µM
O=C(Nc1nnc(NCc2ccc3c(c2)OCO3)s1)c1ccc(Br)cc1 | Human cytomegalovirus |  | Polymerase |  | IC50 | >25 µM
N/C(=N\OC(=O)c1cc2ccccc2s1)c1ccc(Cl)cc1Cl | Human cytomegalovirus | scintillation proximity / radiometric | Polymerase |  | IC50 | 72 µM
O=C(c1cc2ccccc2cc1O)N1CCN(Cc2ccccc2)CC1 | Human cytomegalovirus |  | HCMV DNA polymerase |  | IC50 | >100 µM
O=C(CCCCCl)Nc1nnc(NCCCN2CCCC2=O)s1 | Human cytomegalovirus |  | Polymerase |  | IC50 | >25 µM
N/C(=N/OC(=O)c1cccc2ccccc12)c1ccc(Cl)cc1 | Human cytomegalovirus | scintillation proximity / radiometric | Polymerase |  | IC50 | 50 µM
COc1ccc2cc(O)c(C(=O)NCc3ccc(Cl)cc3)cc2c1 | Human cytomegalovirus |  | HCMV DNA polymerase |  | IC50 | >100 µM
N#Cc1ccc(C(=O)Nc2nnc(NCCCN3CCCC3=O)s2)cc1 | Human cytomegalovirus |  | Polymerase |  | IC50 | <25 µM
COc1cccc(C(=O)O/N=C(\N)c2ccc(Cl)cc2Cl)c1OC | Human cytomegalovirus | scintillation proximity / radiometric | Polymerase |  | IC50 | >100 µM
CCOc1ccc2ccccc2c1C(=O)Nc1nnc(NCC2CC2)s1 | Human cytomegalovirus |  | Polymerase |  | IC50 | >25 µM
N/C(=N/OC(=O)c1cccc2ccccc12)c1ccc(F)cc1Cl | Human cytomegalovirus | scintillation proximity / radiometric | Polymerase |  | IC50 | 28.6 µM
Nc1nc2c(ncn2CC[C@H](O)COP(=O)(O)OP(=O)(O)OP(=O)(O)O)c(=O)[nH]1 | Human cytomegalovirus |  | DNA polymerase | AD169 | IC50 | 112 µM
COC(=O)[C@H](COCc1ccccc1)Nc1nc2ccc(NC(=O)OC(C)(C)C)c(C)c2c(=O)o1 | Human cytomegalovirus |  | Protease |  | IC50 | 0.82 µM
O=C(Nc1nnc(NCCCCc2ccccc2)s1)c1ccc(Br)cc1 | Human cytomegalovirus |  | Polymerase |  | IC50 | >25 µM
CN=C(NOC(=O)c1ccccc1)c1ccc(Cl)cc1Cl | Human cytomegalovirus | scintillation proximity / radiometric | Polymerase |  | IC50 | >100 µM
O=C(Nc1nnc(NC2CCN(Cc3ccccc3)CC2)s1)c1ccc(I)cc1 | Human cytomegalovirus |  | Polymerase |  | IC50 | >25 µM
Cc1c(Br)ccc2nc(N[C@H](C)C(=O)OC(C)(C)C)oc(=O)c12 | Human cytomegalovirus |  | Protease |  | IC50 | 1.8 µM
O=C(NCc1cccc([N+](=O)[O-])c1)c1cc2ccccc2cc1O | Human cytomegalovirus |  | HCMV DNA polymerase |  | IC50 | >100 µM
CC1(C)CC(=O)C(C2=C(Cl)C(=O)c3ccccc3C2=O)C(=O)C1 | Human cytomegalovirus | HPLC | Protease |  | IC50 | 0.72 µM
COc1ccc2cc(O)c(C(=O)N[C@H](C)c3ccc([N+](=O)[O-])cc3)cc2c1 | Human cytomegalovirus |  | HCMV DNA polymerase |  | IC50 | >100 µM
O=C(NCc1ccc(Cl)cc1)c1c[nH]c2c(F)cccc2c1=O | Human cytomegalovirus |  | Herpesvirus DNA polymerase |  | Ki | 4 µM
O=C(Nc1nnc(NCCc2c[nH]c3ccccc23)s1)c1ccc(C(F)(F)F)cc1 | Human cytomegalovirus |  | Polymerase |  | IC50 | >25 µM
N/C(=N/OC(=O)c1cccc2ccccc12)c1cc(Cl)ccc1Cl | Human cytomegalovirus | scintillation proximity / radiometric | Polymerase |  | IC50 | 15 µM
Cc1cccc2nc(N[C@@H](Cc3c[nH]c4ccccc34)C(=O)OC(C)(C)C)oc(=O)c12 | Human cytomegalovirus |  | Protease |  | IC50 | 0.64 µM
Nc1nc2c(ncn2CC[C@@H](O)COP(=O)(O)OP(=O)(O)OP(=O)(O)O)c(=O)[nH]1 | Human cytomegalovirus |  | DNA polymerase | AD169 | IC50 | >150 µM

The first 3 rows once more:

CC(C)(C)CNc1nnc(NC(=O)/C=C/c2ccccc2Cl)s1 ; organism: Human cytomegalovirus ; protein: Polymerase ; measure: IC50 ; value: >25 µM
COC(=O)[C@H](C)Nc1nc2ccc(NC(=O)c3ccccn3)c(C)c2c(=O)o1 ; organism: Human cytomegalovirus ; protein: Protease ; measure: IC50 ; value: 0.31 µM
CC(=O)C(C(=O)OCc1ccccc1)C1=C(Cl)C(=O)c2ccccc2C1=O ; organism: Human cytomegalovirus ; method: scintillation proximity ; protein: Protease ; measure: IC50 ; value: 0.8 µM